## PSTVd loop 6 mutant pool in Nicotiana benthamiana

The pool varies loop 6 of the PSTVd intermediate strain in the pattern UNNNCGNNNG; wild type is UGACCGCGAG (upper and lower strand joined, each 5' to 3', the first 5 letters being the upper strand, closing pairs included).

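Three N. benthamiana plants were inoculated with the whole mutant pool. Samples came from the inoculated region at 5 days, the leaf margin at 10 and upper systemic leaves at 12.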

Numbers give reads per thousand; 0 = not seen among the reads, higher = more abundant. Each value is the mean of three plants. "Pool" is the share in the plasmid pool used as inoculum, on the same scale. The inoculated region was read from the minus strand, the other sites from the plus strand. Samples held 36,220 to 57,551 reads, so the smallest values rest on one or two reads. Wild type was 20.7 per thousand in the pool and the most common sequence in every sample (inoculated region 195, 198, 203; leaf margin 629, 591, 734; systemic leaves 942, 870, 868). The authors trace changes outside the varied positions to PCR and sequencing errors or to mutation in the plant; presence does not show that a variant is infectious alone.

sequence,pool,inoculated region,leaf margin,systemic leaves
GUCGCGACCG,0.0131,0,0,0
UAACCGUCCG,0.105,0.714,0.0846,0.0203
UAAUCGCGGG,0.353,0.131,0.00920,0.00684
UACGCGCCUG,0.222,0.0956,0.00773,0
UACUCGUGCG,0.157,0.101,0.00773,0
UAGACGAUAG,0.301,0.106,0.0696,0
UAGACGUAAG,0.131,0.0778,0.0169,0
UAGCCGACGG,0.261,0.101,0.0247,0.00599
UAUACGCGCG,0.222,0.657,0.0951,0
UAUACGUCAG,0.288,0.120,0.0169,0
UAUCCGACAG,0.353,0.160,0,0
UCACCGCGUG,0.157,0.124,0.0331,0.00673
UCAGCGAAGG,0.0392,0.0829,0,0
UCAGCGUCGG,0.183,0.112,0.00773,0
UCCGCGCCCG,0.222,0.0777,0,0
UCCGCGGAUG,0.183,0.0955,0.00920,0
UCCUCGGUAG,0.196,0.0959,0,0
UCGACGACAG,0.248,0.149,0.00773,0
UCGACGGCUG,0.327,0.0413,0.0169,0
UCGCCGUGGG,0.131,0.101,0,0
UCGCCGUUCG,0.275,0.0944,0.0276,0
UCGGCGUCGG,0.261,0.118,0.00920,0
UCUACGGAAG,0.118,0.102,0.0169,0.0135
UCUCCACGGG,0.0131,0,0,0
UCUCCGCGAG,0.131,0.186,0.215,0.0332
UCUCCGUGCG,0.196,0.106,0,0
UGAACGGGUG,0.235,0.863,0.175,0.0662
UGACAGAUUG,0.0131,0.00599,0,0
UGACAGUUAG,0.0131,0.00599,0,0
UGACCGUGCG,0.209,0.179,0.283,0.0869
UGACCGUUUG,0.641,0.328,0.508,0.138
UGACGGGUGG,0.0131,0,0,0
UGAGCGAUAG,0.340,0.131,0.0387,0
UGCACGCCGG,0.301,0.0949,0.00920,0
UGCCCACAGG,0.0131,0,0,0
UGCCCGUCGG,0.196,0.107,0.00773,0
UGCGCGCCGG,0.170,0.0655,0,0
UGCGCGGACG,0.261,0.0891,0,0
UGCGCUUAGG,0.0131,0,0,0
UGCUCGGACG,0.235,0.106,0.00920,0
UGCUCGGGAG,0.118,0.137,0,0
UGGACGUGUG,0.431,0.0958,0.00920,0
UGGGCGUACG,0.157,0.0770,0.00773,0
UGGUCGGUCG,0.314,0.0835,0,0
UGUACGCGAG,0.209,0.162,0.126,0.0871
UGUCCGAACG,0.288,0.0600,0,0
UGUCCGAGUG,0.235,0.120,0.00773,0
UUACCGUCCG,0.301,0.167,0.00920,0
UUAGCGCAAG,0.144,0.143,0.0353,0
UUAGCGCAGG,0.275,0.0531,0.0169,0
UUAGCGUGAG,0.196,0.517,0.0950,0
UUAGCGUGGG,0.0915,0.0772,0.00920,0
UUAUCGGCCG,0.196,0.703,0.0929,0
UUAUCGGGAG,0.209,0.869,0.224,0.0813
UUCACGUAAG,0.157,0.0715,0.00920,0
UUCGCGACAG,0.301,0.0901,0.00773,0.00684
UUCUCGCGUG,0.261,0.0942,0.00920,0
UUCUCGCUAG,0.157,0.0900,0.00773,0
UUCUCGCUGG,0.196,0.107,0,0
UUGCCGAGCG,0.261,0.120,0,0
UUGGAGCCAG,0.0131,0,0,0
UUGGCGGAGG,0.314,0.0715,0,0
UUGUCGCGUG,0.209,0.119,0.0246,0
UUUACGUGCG,0.327,0.0656,0.00920,0
UUUGCGCUGG,0.118,0.0536,0.00773,0
UUUGCGGCAG,0.235,0.108,0.00773,0
UUUGCGUACG,0.170,0.102,0,0.00684
UUUUCGAUAG,0.235,0.118,0.0633,0

6 of these entries, quoted again:

| sequence | pool | inoculated region | leaf margin | systemic leaves |
|---|---|---|---|---|
| UGCACGCCGG | 0.301 | 0.0949 | 0.00920 | 0 |
| UUCUCGCUAG | 0.157 | 0.0900 | 0.00773 | 0 |
| UCAGCGAAGG | 0.0392 | 0.0829 | 0 | 0 |
| UUAGCGCAAG | 0.144 | 0.143 | 0.0353 | 0 |
| UAGACGUAAG | 0.131 | 0.0778 | 0.0169 | 0 |
| UCCGCGCCCG | 0.222 | 0.0777 | 0 | 0 |

The measurements come from Wu et al. 2024 (doi:10.1371/journal.ppat.1012142).